Key:
[1] = target: NS2B(H)-NS3pro (DENV-2 NS2B-NS3 protease) (Dengue virus 2 Thailand/NGS-C/1944, UniProt P14340); assay: fluorometric protease assay, AMC substrate; type: biochemical; conditions: pH 7.5, HEPES, CHAPS; substrate Bz-nKRR-AMC
[2] = target: DENV2proHeLa NS2B-NS3 protease (Dengue virus 2 Thailand/16681/84, UniProt P29990); assay: DENV2proHeLa reporter gene assay; type: cell-based; conditions: HeLa cells, intracellular protease

Amino acid sequences for entries named in this document (tags omitted).
UniProt P29990, whole entry, looked up: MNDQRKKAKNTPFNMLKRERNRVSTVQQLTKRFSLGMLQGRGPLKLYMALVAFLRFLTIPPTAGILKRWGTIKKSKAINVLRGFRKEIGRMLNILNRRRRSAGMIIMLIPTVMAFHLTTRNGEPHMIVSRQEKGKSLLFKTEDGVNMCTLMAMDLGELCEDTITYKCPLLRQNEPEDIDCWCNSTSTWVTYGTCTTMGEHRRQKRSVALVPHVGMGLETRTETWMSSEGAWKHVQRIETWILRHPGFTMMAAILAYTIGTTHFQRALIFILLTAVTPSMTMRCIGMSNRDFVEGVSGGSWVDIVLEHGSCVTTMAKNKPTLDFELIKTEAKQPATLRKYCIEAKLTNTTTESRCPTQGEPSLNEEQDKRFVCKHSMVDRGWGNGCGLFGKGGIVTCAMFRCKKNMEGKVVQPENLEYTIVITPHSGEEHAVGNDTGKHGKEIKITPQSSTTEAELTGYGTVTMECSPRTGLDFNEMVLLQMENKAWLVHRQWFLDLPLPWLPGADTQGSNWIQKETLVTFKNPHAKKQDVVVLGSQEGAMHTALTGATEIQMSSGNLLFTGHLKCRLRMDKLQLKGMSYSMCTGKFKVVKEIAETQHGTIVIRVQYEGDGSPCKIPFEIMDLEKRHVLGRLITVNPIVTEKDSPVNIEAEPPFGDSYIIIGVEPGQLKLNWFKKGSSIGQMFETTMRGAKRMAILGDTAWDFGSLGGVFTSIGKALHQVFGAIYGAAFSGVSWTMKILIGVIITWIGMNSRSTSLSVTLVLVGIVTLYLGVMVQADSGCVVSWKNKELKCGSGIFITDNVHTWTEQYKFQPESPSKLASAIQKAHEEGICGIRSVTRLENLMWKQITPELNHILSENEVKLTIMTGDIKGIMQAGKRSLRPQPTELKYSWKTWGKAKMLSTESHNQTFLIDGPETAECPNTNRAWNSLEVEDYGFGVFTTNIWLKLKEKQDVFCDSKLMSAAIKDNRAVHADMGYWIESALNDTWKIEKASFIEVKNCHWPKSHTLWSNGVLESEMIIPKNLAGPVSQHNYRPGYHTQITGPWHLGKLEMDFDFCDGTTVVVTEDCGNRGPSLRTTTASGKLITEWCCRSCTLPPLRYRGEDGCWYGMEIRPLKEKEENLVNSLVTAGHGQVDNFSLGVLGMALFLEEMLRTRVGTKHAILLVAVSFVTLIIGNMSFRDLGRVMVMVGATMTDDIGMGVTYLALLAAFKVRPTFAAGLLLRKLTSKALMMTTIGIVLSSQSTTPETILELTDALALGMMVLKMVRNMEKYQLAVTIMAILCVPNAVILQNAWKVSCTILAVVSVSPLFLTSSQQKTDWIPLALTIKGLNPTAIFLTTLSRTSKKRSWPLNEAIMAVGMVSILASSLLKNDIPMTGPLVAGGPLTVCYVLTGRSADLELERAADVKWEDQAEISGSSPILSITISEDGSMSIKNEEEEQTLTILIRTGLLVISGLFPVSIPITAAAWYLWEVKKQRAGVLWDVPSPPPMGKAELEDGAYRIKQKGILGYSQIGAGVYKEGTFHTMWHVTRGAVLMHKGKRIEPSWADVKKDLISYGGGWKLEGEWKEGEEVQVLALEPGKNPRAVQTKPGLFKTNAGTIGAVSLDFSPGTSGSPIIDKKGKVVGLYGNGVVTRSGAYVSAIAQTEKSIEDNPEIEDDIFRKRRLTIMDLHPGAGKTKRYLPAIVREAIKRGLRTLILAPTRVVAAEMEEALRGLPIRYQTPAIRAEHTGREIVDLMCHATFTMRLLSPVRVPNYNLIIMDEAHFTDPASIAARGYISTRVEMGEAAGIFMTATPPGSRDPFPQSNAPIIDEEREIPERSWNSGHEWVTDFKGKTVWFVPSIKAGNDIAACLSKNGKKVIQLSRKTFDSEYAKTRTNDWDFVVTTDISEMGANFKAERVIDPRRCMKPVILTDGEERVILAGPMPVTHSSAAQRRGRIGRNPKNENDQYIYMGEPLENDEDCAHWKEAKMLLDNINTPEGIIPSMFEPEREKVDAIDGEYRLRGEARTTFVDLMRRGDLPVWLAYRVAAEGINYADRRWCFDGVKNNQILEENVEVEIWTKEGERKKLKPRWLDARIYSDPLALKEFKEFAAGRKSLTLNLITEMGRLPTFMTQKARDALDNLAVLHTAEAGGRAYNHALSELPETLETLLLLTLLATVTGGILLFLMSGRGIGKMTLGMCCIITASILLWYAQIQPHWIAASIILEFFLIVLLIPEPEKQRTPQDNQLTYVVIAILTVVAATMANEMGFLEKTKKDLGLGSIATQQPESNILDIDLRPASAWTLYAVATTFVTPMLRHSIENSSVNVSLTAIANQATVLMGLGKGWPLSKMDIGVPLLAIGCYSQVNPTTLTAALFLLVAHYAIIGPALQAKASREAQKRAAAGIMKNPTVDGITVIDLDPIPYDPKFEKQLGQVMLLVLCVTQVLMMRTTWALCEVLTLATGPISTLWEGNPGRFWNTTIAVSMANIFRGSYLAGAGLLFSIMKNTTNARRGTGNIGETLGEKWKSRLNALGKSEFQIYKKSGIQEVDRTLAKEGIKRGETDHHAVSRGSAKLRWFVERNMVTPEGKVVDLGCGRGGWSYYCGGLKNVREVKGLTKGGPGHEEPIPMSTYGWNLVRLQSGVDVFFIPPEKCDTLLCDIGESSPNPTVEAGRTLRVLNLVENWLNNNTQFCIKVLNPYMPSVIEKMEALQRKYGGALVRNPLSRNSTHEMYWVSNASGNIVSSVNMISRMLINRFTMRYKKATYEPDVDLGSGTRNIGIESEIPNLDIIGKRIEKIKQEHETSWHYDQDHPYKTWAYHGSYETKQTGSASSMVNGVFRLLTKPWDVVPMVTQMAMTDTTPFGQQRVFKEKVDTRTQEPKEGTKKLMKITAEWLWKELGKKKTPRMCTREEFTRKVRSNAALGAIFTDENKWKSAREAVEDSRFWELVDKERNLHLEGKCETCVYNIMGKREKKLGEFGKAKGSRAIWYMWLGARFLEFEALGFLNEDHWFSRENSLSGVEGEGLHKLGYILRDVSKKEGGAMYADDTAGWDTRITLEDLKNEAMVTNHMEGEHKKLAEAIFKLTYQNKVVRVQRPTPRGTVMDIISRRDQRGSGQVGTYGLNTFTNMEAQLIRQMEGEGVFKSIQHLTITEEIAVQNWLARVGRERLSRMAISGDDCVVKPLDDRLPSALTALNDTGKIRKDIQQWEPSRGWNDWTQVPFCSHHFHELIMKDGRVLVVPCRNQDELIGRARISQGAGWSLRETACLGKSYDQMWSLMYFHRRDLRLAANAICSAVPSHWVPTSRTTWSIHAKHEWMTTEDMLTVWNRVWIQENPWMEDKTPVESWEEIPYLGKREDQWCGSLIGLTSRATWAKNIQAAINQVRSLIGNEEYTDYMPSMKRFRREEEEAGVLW

| SMILES | IC50 [1] | EC50 [2] | % inhibition at 50 μM [1] |
| --- | --- | --- | --- |
| NC(=O)c1cccc(NC(=O)[C@@H](NC(=O)CC2(CNC(=O)C3CCC3)CCCCC2)c2ccc(OCc3ccccc3)cc2)c1 | 9.2 µM | 3.8 µM |  |
| NCC1(CC(=O)N[C@H](C(=O)Nc2cccc(C(N)=O)c2)c2ccc(OCc3ccccc3)cc2)CCCCC1 |  | 21 µM | 26% |
| NC(=O)c1cccc(NC(=O)[C@@H](NC(=O)CC2(CNC(=O)c3ccccc3)CCCCC2)c2ccc(OCc3ccccc3)cc2)c1 | 12 µM | 3.7 µM |  |
| CC(C(=O)N[C@H](C(=O)Nc1cccc(C(N)=O)c1)c1ccc(OCc2ccccc2)cc1)c1cccc(C(=O)c2ccccc2)c1 (stereo partly shown) | 17 µM | 2.4 µM |  |
| CC(=O)Nc1ccc(Oc2ccc(C(=O)N[C@H](C(=O)Nc3cccc(C(N)=O)c3)c3ccc(OCc4ccccc4)cc3)cc2)cc1 | 16 µM | 3.1 µM |  |
| NC(=O)c1cccc(NC(=O)[C@@H](NC(=O)c2ccc(Oc3ccccc3)cc2)C2CCCCC2)c1 |  | 3.9 µM |  |
| NC(=O)c1cccc(NC(=O)[C@@H](NC(=O)C2(c3ccccc3)CCCC2)c2ccc(OCc3ccccc3)cc2)c1 | 6.6 µM | 6 µM |  |

Source: paper doi:10.1101/2024.06.05.597555v1 (biorxiv, 2024)
